Results on 13 compounds are retold here after ChEMBL document CHEMBL3124763, “Optimization of furin inhibitors to protect against the activation of influenza hemagglutinin H5 and Shiga toxin” (J Med Chem, 2014).

Amino acid sequences for entries named in this document (tags omitted). Residues count along the entry.
UniProt P09958, 108-794 limits assumed: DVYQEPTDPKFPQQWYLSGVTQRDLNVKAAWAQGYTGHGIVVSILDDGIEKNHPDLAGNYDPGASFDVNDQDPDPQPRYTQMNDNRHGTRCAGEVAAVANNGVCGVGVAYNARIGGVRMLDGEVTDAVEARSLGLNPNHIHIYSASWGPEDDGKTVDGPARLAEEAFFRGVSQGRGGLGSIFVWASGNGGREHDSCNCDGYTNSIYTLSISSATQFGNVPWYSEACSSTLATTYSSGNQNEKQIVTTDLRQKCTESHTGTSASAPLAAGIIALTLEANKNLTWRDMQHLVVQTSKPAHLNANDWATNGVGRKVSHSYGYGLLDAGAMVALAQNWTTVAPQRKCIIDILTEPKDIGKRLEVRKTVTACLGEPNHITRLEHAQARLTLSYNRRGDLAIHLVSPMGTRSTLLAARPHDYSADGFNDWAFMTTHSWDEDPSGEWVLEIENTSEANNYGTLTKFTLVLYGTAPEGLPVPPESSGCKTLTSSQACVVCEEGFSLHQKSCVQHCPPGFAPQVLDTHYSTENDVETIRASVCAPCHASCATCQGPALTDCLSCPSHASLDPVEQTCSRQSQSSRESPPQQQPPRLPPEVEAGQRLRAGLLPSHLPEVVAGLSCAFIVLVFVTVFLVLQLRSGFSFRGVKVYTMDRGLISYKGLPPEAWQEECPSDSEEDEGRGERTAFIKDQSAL

Data set [1] can be described thus: Cellular uptake in human HT1080 cells at 10 uM after 1 hr by FACS analysis. The note with it: ht-1080, 1 h.
Data set [2] can be described thus: Cellular uptake in human HT1080 cells assessed as membrane binding at 10 uM after 1 hr by FACS analysis. The note with it: ht-1080, 1 h.
The subject of the next data set is Plasma. Description: Half life in CD1 mouse plasma at 35 ug by HPLC analysis. The note with it: strain CD1, Plasma.
The target in the next data set is Furin (Homo sapiens, UniProt P09958). Description: Competitive inhibition of recombinant furin (unknown origin) using as substrate after 60 mins.
The next data set relates to Mus musculus. The data set is described as follows: Acute toxicity in iv dosed mouse. The note with it: in vivo.
The nature of data set [3]: Cytotoxicity against human HEK293FT cells after 24 hrs by MTT assay. (Formazan colour is commonly taken as a measure of viable cells.)
Data set [4] can be described thus: Cytotoxicity against human HEK293FT cells at 100 uM after 4 hrs by LDH assay.

`C[C@H](NC(=O)[C@H](CCCNC(=N)N)NC(=O)CCNC(=S)Nc1ccc2c(c1)C(=O)OC21c2ccc(O)cc2Oc2cc(O)ccc21)C(=O)N[C@@H](CCCNC(=N)N)C(=O)N[C@@H](CCCNC(=N)N)C(=O)N[C@@H](CCCNC(=N)N)C(=O)N[C@@H](CCCCN)C(=O)N[C@@H](CCCCN)C(=O)NCc1ccc(C(=N)N)cc1`: the results for the Drug uptake in data set [1] and in data set [2] were 465% and 0%, respectively.
As usually defined, the Ki is a measure of affinity in units of concentration, obtained from inhibition or displacement. `CC(=O)N[C@@H](CCCN=C(N)N)C(=O)N[C@@H](C)C(=O)N[C@@H](CCCN=C(N)N)C(=O)NN(CCCN=C(N)N)CC(=O)N[C@@H](CCCN=C(N)N)C(=O)N[C@@H](CCCCN)C(=O)N[C@@H](CCCCN)C(=O)N[C@@H](CCCN=C(N)N)C(=O)N[C@H](C(N)=O)[C@@H](C)O` gave a t1/2 in the data set with Plasma of 1 h. For the same compound, the Ki at Furin came out at 89 nM.
Compound `CC(=O)NN(CCCN=C(N)N)CC(=O)N[C@@H](C)C(=O)N[C@@H](CCCN=C(N)N)C(=O)N[C@@H](CCCN=C(N)N)C(=O)N[C@@H](CCCN=C(N)N)C(=O)N[C@@H](CCCCN)C(=O)N[C@@H](CCCCN)C(=O)NN(CCCN=C(N)N)CC(=O)N[C@H](C(N)=O)[C@@H](C)O` came in with an MTD with Mus musculus of 10 mg/kg. This compound also had a t1/2 in the data set on Plasma of 7.7 h. Also, the Activity is above 150 µM in data set [3] and below 5% in data set [4]. The Ki on Furin came to 33 nM.
As for `CC(=O)N[C@@H](CCCN=C(N)N)C(=O)N[C@@H](C)C(=O)N[C@@H](CCCN=C(N)N)C(=O)N[C@@H](CCCN=C(N)N)C(=O)N[C@@H](CCCN=C(N)N)C(=O)N[C@@H](CCCCN)C(=O)N[C@@H](CCCCN)C(=O)NN(CCCN=C(N)N)CC(=O)N[C@H](C(N)=O)[C@@H](C)O`, the MTD with Mus musculus was 10 mg/kg. This compound displayed a t1/2 in the data set with Plasma of 5.6 h. Also, the Activity was above 150 µM in data set [3] and below 5% in data set [4]. Moreover, at Furin, the Ki was 21 nM.
As to `CC(=O)N[C@@H](CCCNC(=N)N)C(=O)N[C@@H](C)C(=O)N[C@@H](CCCNC(=N)N)C(=O)N[C@@H](CCCNC(=N)N)C(=O)N[C@@H](CCCNC(=N)N)C(=O)N[C@@H](CCCCN)C(=O)N[C@@H](CCCCN)C(=O)NCc1ccc(C(=N)N)cc1`, in the data set with Mus musculus, the MTD amounted to 7 mg/kg. The t1/2 with Plasma stood at 8.6 h. For the same compound, the Activity in data set [3] was above 150 µM; in data set [4] it was below 5%. Also, on Furin, the Ki was found to be 1.9 nM.
In the data set with Plasma, `CC(=O)N[C@@H](CCCNC(=N)N)C(=O)N[C@@H](C)C(=O)N[C@@H](CCCNC(=N)N)C(=O)N[C@@H](CCCNC(=N)N)C(=O)NN(CCCNC(=N)N)CC(=O)N[C@@H](CCCCN)C(=O)N[C@@H](CCCCN)C(=O)N[C@@H](CCCNC(=N)N)C(=O)N[C@H](C(N)=O)[C@@H](C)O` returned a t1/2 of 0.95 h. Also, the Ki at Furin came out at 123 nM.
In the case of `CC(=O)N[C@@H](CCCNC(=N)N)C(=O)N[C@@H](C)C(=O)N[C@@H](CCCNC(=N)N)C(=O)N[C@@H](CCCNC(=N)N)C(=O)N[C@@H](CCCNC(=N)N)C(=O)NN(CCCCN)CC(=O)N[C@@H](CCCCN)C(=O)N[C@@H](CCCNC(=N)N)C(=O)N[C@H](C(N)=O)[C@@H](C)O`, on Furin, the inhibition constant Ki was 591 nM.
The compound `CC(=O)NN(CCCN=C(N)N)CC(=O)N[C@@H](C)C(=O)N[C@@H](CCCN=C(N)N)C(=O)N[C@@H](CCCN=C(N)N)C(=O)N[C@@H](CCCN=C(N)N)C(=O)N[C@@H](CCCCN)C(=O)N[C@@H](CCCCN)C(=O)N[C@@H](CCCN=C(N)N)C(=O)N[C@H](C(N)=O)[C@@H](C)O` displayed an MTD in the data set with Mus musculus above 10 mg/kg. The t1/2 in the data set on Plasma was 2.9 h. The Activity in data set [3] was above 100 µM; in data set [4] it was below 5%. Further, the Ki on Furin worked out at 8 nM.
As for `C[C@H](NC(=O)CN(CCCNC(=N)N)NC(=O)CCNC(=S)Nc1ccc2c(c1)C(=O)OC21c2ccc(O)cc2Oc2cc(O)ccc21)C(=O)N[C@@H](CCCNC(=N)N)C(=O)N[C@@H](CCCNC(=N)N)C(=O)N[C@@H](CCCNC(=N)N)C(=O)N[C@@H](CCCCN)C(=O)N[C@@H](CCCCN)C(=O)NN(CCCNC(=N)N)CC(=O)N[C@H](C(N)=O)[C@@H](C)O`, the figures for the Drug uptake in data set [1] and in data set [2] were 115% and 14%, respectively.
For `C[C@H](NC(=O)[C@H](CCCNC(=N)N)NC(=O)CCNC(=S)Nc1ccc2c(c1)C(=O)OC21c2ccc(O)cc2Oc2cc(O)ccc21)C(=O)N[C@@H](CCCNC(=N)N)C(=O)N[C@@H](CCCNC(=N)N)C(=O)N[C@@H](CCCNC(=N)N)C(=O)N[C@@H](CCCCN)C(=O)N[C@@H](CCCCN)C(=O)NN(CCCNC(=N)N)CC(=O)N[C@H](C(N)=O)[C@@H](C)O` the same measures were 96% and 22%.
As to `C[C@H](NC(=O)[C@H](CCCNC(=N)N)NC(=O)CCNC(=S)Nc1ccc2c(c1)C(=O)OC21c2ccc(O)cc2Oc2cc(O)ccc21)C(=O)N[C@@H](CCCNC(=N)N)C(=O)N[C@@H](CCCNC(=N)N)C(=O)N[C@@H](CCCNC(=N)N)C(=O)N[C@@H](CCCCN)C(=O)N[C@@H](CCCCN)C(=O)NC/C=C/CNC(=N)N`, the results for the Drug uptake in data set [1] and in data set [2] were 265% and 8%, respectively.
`CC(=O)N[C@@H](CCCNC(=N)N)C(=O)N[C@@H](C)C(=O)NN(CCCNC(=N)N)CC(=O)N[C@@H](CCCNC(=N)N)C(=O)N[C@@H](CCCNC(=N)N)C(=O)N[C@@H](CCCCN)C(=O)N[C@@H](CCCCN)C(=O)N[C@@H](CCCNC(=N)N)C(=O)N[C@H](C(N)=O)[C@@H](C)O` displayed a t1/2 in the data set with Plasma of 1.16 h. The Ki at Furin amounted to 18 nM.
`CC(=O)N[C@@H](CCCN=C(N)N)C(=O)N[C@@H](C)C(=O)N[C@@H](CCCN=C(N)N)C(=O)N[C@@H](CCCN=C(N)N)C(=O)N[C@@H](CCCN=C(N)N)C(=O)N[C@@H](CCCCN)C(=O)N[C@@H](CCCCN)C(=O)NC/C=C/CN=C(N)N`: the MTD in the data set on Mus musculus was above 10 mg/kg. This compound also displayed a t1/2 with Plasma of 4.8 h. The figures for the Activity in data set [3] and in data set [4] were above 150 µM and below 5%, respectively. For the same compound, the Ki at Furin is 6 nM.
